Source: the supplement of paper PMC9931576
Human monoclonal antibodies against the spike receptor-binding domain (heavy:light variable regions). IC50 against pseudoviruses bearing the spike of naturally observed variants; lower = stronger; >10 µg/ml means not reached at the top dose. No active / inactive call. The stated detection limit is 0.0005 µg/ml; values near or below 0.001 µg/ml lie at the floor of the assay.

B1: BD57-0113 (protein)
chain 1: EVQLVESGGGLVQPGRSLRLSCAASGFTFDDYAMHWVRQAPGKGLEWVSGISWNSGDIAYSDSVKGRFTISRDNAKNSLYLQMNSLRAEDTALYYCAKAPLGELPTGPFDYWGQGTRVTVSS
chain 2: QSVLTQPPSASGTPGQRVTISCSGSSSNIGTYTINWYQHLPGTAPRLLIYSNNHRPSGVPDRFSGSKSGTSASLAISGLQSEDEADYYCVAWDDSLNGWVFGGGTKLTVL
B2: BD56-1934 (protein)
chain 1: QVQLVQSGAEVKKPGSSVKVSCKASGGTFSKYAISWVRQAPGQGPEWMGRIIPMFGMANSAQKFQGRVTISADKSTSTAYMELSSLRSEDTAVYYCATSPFYPDSSGYYLDYWGQGTLVTVTS
chain 2: DIQMTQSPSSLSASVGDRVTITCRASQDINNYLAWYQQKPGKPPKLLIHGVSTLQSGVPSRFSGSGSGTDYALTISSLQPEDFAAYYCQQYYSAPRTFGPGTKVDIK
B3: BD56-1927 (protein)
chain 1: QVQLVQSGAEVKKPGSSVKVSCKASGGTFSSFAINWVRQAPGQGLEWMGRIIPIVDVRNYAQKFQGRVTIAADRSTSTAYMELSSLSSEDTAVYYCARDPRPVVTMGLGDHGMDVWGQGTAVTVSS
chain 2: DIVMTQSPLSLPVTPGEPASISCRSSQSLLQSNGYNYLDWYLQKPGQSPHLLIYLGSNRASGVPDRFSGSGSGTDFTLKISRVEAEDVGIYYCMQALQTLRTFGQGTKLEIK
B4: BD57-0110 (protein)
chain 1: QVQLQESGPGLVKPSETLSLTCSVSGGSISRSSYYWVWIRQPPGKGLEWIGSIYHSGSTYYNPSLKSRVTISVDTSKNQFSLKLTSVTAADTAMYYCARDWSLYGGEKFDYWGQGILVTVSS
chain 2: IVLTQSPATLSLSPGERATLSCRASQSVSSYLAWYQQKPGQAPRLLIYDASNRATGIPARFSGSGSGTDFTLTISSLEPEDFAVYYCQQRSNWPEITFGPGTKVDVK
B5: BD57-0101 (protein)
chain 1: QVQLVQSGAEVKKPGSSVKVSCKASRGTFSSYSITWVRQAPGQGLEWMGTIIPILGIANYAQKFQDRVTITADKSTSTAYMELSSLRSEDTAMFYCARDQVADSGSPSWFDPWGQGTLVTVSS
chain 2: QSVLTQPPSVSGAPGQRVTISCTGSNSNIGAGYDVHWYQQFPGTAPKLLIYANKNRPSGVPDRFSGSKSGTSASLGITGLQAEDEADYYCQSYDSSLSDVVFGGGTTLTVL
B6: BD57-0107 (protein)
chain 1: QVQLVQSGAELKKPGSSVKVSCKASGGSFNTYFITWVRQAPGQGLEWLGRILPRLGAVNYAQRFQGRVTITADDATRTAYMELSGLRSEDTAVYFCAREVGYSDSGSVSYFDPWGQGTLVTVSS
chain 2: QSVLTQPPSVSGAPGQRVTISCTGTNSNIGAGYDVHWYQQLPGTAPRLLIYANSNRPSGVPDRFSGSKSGTSASLAITGLQAEDEADYYCQSYDSSLSGSIFGGGTKVTVL
B7: BD56-1932 (protein)
chain 1: QVQLVQSGAELKEPGSSVKVSCQASGGTFSSYAFSWVRQAPGQGLEWMGRIIPILSTTNYAQNLQGRLTIAADKSTTTVYMELSSLRSEDTAVYYCAKHLHDYGDDLLYKYIMDVWGQGTTVTVSS
chain 2: DIQMTQSPSTLSASVGDRVTITCRASQTISNWLAWYQQKPGKAPKLLISKASNLQSGVPSRFSGSGSGTEFTLTISSLQPDDFATYYCQQYNTYSPFGQGTKVEIK
B8: BD57-0118 (protein)
chain 1: QITLKESGPTLVKPTQTLTLTCTFSGFSLTTSGEGVGWIRQPPGKAPEWLALIYWNDDKHYRPSLKSRLTITKDTSKNQVVLRMTNMDPVDTATYNCAHSYYYDSRGYSFDFWGQGTLVTVSS
chain 2: DIQMTQSPSSVSASVGDRVTITCRASQNIISWLAWYQQKPGKAPKLLIYAASSLQSGVPSRFSGSGSGTDFTLTISSLQPEDFATYYCQQANNFPITFGQGTRLDIK
B9: BD56-1925 (protein)
chain 1: QVQLQESGPGLVKPSGTLSLTCAVSGGSINDRNWWSWVRQTPGKGLEWIGEIYHTGSASYNPSLKSRVTMSVDKSKNSFSLQLTSVTAADTAVFYCARSSGILDCWGQGTLVTVSS
chain 2: DIQMTQSPSSLSASVGDSVTITCRASQDISNSVAWYQQRPGKAPKLLLYAASTLESGVPSRFSGSGSGTDYTLSISSLQPEDFATYFCQQYYSTRTFGQGTKVDIK
B10: BD56-1931 (protein)
chain 1: QLQLVQSGAEVKKPGASVKVSCKASGFTFTHYGISWVRQAPGQGLEWMGWLSVYNGNTNDAQKGQGRVTMTKDTSTSTAYLELRSLRSDDTAVYYCARVQEYYDRSGNPQWDAVDLWGQGTMVTVSS
chain 2: DIVMTQSPDSLAVSLGERATINCKSSQSVLYSSNNKNYLAWYQQKPGQPPKLLIYWASTRESGVPDRFSGSGSGTDFTLTISSLQAEDVAVYYCQQYSISPWTFGQGTKVEIK
B11: BD57-0104 (protein)
chain 1: EVQLVESGGGLVKPGGSLRLSCVASGFIFSDYSMNWVRQAPGKGLEWVSSISRSDTRTYYADSVRGRFTISRDNAKNALYLQMNSLRAEDTAVYYCARGDLWGFDLVMEVAGHFDYWGQGTLVTVSS
chain 2: EIVLTQSPGTLSLSPGESATLSCRASQSVSSSSLAWYQQKPGQAPRLLIYGAYSRATGVPDRFSGSGSGTDFTLTISRLEPEDFAVYYCQQFGSSPLYTFGQGTKLEIK
B12: BD57-0109 (protein)
chain 1: EVQLVQSGAEVKKPGESLKISCKASGYSFSNYWIGWVRQRPGKGLEWMGVIYPGDSDTRYSPSFQGQVTISADKSINTAYLQWGSLKASDTAMYYCAKPFGYSGYDPEYSYDMDVWGQGTTVTVSS
chain 2: QSALTQPASVSGSPGQSITISCTGANTDVGSYNLVSWYQQHPGKAPKLIIYEGSERPSGVSNRFSGSKSGNTASLTISGLQAEDEADYYCCSYPGSSISVFGGGTKLTVL

Key:
Assay in all cases: pseudovirus neutralization IC50; higher = weaker neutralization
[1] = molecular target: SARS-CoV-2 Omicron BA.1 spike pseudovirus
Protocol: (§1)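 Single-round VSV luciferase pseudovirus mixed with antibody dilutions for 1 h and put on Huh-7 cells for about a day; IC50 from the dose curve.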

[2] = molecular target: SARS-CoV-2 Omicron BA.2 spike pseudovirus
Protocol: as §1

[3] = molecular target: SARS-CoV-2 Omicron BA.2.75 spike pseudovirus
Protocol: as §1

[4] = molecular target: SARS-CoV-2 Omicron BA.5 spike pseudovirus
Protocol: as §1

[5] = molecular target: SARS-CoV-2 Omicron BQ.1.1 spike pseudovirus
Protocol: as §1

[6] = molecular target: SARS-CoV-2 Omicron XBB spike pseudovirus
Protocol: as §1

[7] = molecular target: SARS-CoV-2 early D614G spike pseudovirus
Protocol: as §1

Binder	pseudovirus neutralization IC50 [1] [µg/mL]	pseudovirus neutralization IC50 [2] [µg/mL]	pseudovirus neutralization IC50 [3] [µg/mL]	pseudovirus neutralization IC50 [4] [µg/mL]	pseudovirus neutralization IC50 [5] [µg/mL]	pseudovirus neutralization IC50 [6] [µg/mL]	pseudovirus neutralization IC50 [7] [µg/mL]
B1	6.27	5.45	3.74	3.31	5.91	4.57	0.51
B2	0.248	0.218	0.00401	> 10	> 10	> 10	0.0046
B3	> 10	> 10	> 10	> 10	> 10	> 10	0.00748
B4	> 10	> 10	> 10	8.23	> 10	> 10	0.021
B5	0.0499	0.0202	0.0309	0.917	> 10	6.06	0.096
B6	0.217	0.143	0.0928	> 10	> 10	2.43	0.176
B7	0.188	0.148	0.0675	0.0509	0.179	0.25	0.002
B8	1.03	0.822	0.455	1.6	2.49	2.57	0.00823
B9	0.00391	0.00202	0.00557	0.296	1.59	> 10	0.00574
B10	> 10	> 10	> 10	> 10	> 10	> 10	0.0792
B11	6.67	5.19	4.3	4.83	> 10	> 10	> 10
B12	0.594	0.629	0.504	0.803	2.24	2.6	2.14
